Measured values published in publication PMC6028965, “Mechanism of vaccinia viral protein B14–mediated inhibition of IκB kinase β activation” (The Journal of Biological Chemistry, 2018).

Molecular target: untagged B14 protein (vaccinia virus, UniProt P24772 1-149)
Experiment: pull-down

B1: GST-IKKβ-ULD-SDD M5 mutant (residues 421–426 substituted with GGGGS) (domain or fragment)
chain: LNLKLVHILNMVTGTIHTYPVTEDESLQSLKARIQQDTGIPEEDQELLQEAGLALIPDKPATQCISDGKLNEGHTLDMDLVFLFDNSKITYETQISPRPQPESVSCILQEPKRNGGGGSRKVWGQVWHSIQTLKEDCNRLQQGQRAAMMNLLRNNSCLSKMKNSMASMSQQLKAKLDFFKTSIQIDLEKYSEQTEFGITSDKLLLAWREMEQAVELCGRENEVKLLVERMMALQTDIVDLQRSPMGRKQGGTLDDLEEQARELYRRLREKPRDQRTEGDSQEMVRLLLQAIQSFEKKVRVIYTQLSKTVVCKQKALELLPKVEEVVSLMNEDEKTVVRLQEKRQKELWNLLKIACSKVRGPVSGSPDSMNA
binding result: binds

B2: GST-IKKβ-ULD-SDD M6 mutant (residues 577–583 replaced with GGGGS) (domain or fragment)
chain: LNLKLVHILNMVTGTIHTYPVTEDESLQSLKARIQQDTGIPEEDQELLQEAGLALIPDKPATQCISDGKLNEGHTLDMDLVFLFDNSKITYETQISPRPQPESVSCILQEPKRNLAFFQLRKVWGQVWHSIQTLKEDCNRLQQGQRAAMMNLLRNNSCLSKMKNSMASMSQQLKAKLDFFKTSIQIDLEKYSEQTEFGITSDKLLLAWREMEQAVELCGRENEVKLLVERMMALQTDIVDLQRSPMGRKQGGTLDDLEEQARELYRRLREGGGGSEGDSQEMVRLLLQAIQSFEKKVRVIYTQLSKTVVCKQKALELLPKVEEVVSLMNEDEKTVVRLQEKRQKELWNLLKIACSKVRGPVSGSPDSMNA
binding result: binds
